# Measured values published in article PMC5007486, “Thermodynamic instability of viral proteins is a pathogen-associated molecular pattern targeted by human defensins” (Scientific Reports, 2016).
# System: HIV-1 Gag-Δp6
substance,measurement,value
"HNP-1: human neutrophil α-defensin peptide HNP-1, prepared by solid-phase peptide synthesis",Temperature of destabilization of Gag-Δp6,occurred at the lowest tested temperature
